Data source: PubChem BioAssay AID504761 (Drosophila RNAi Screening Center, 2011)
The screen tested about 22,000 reagents; below is a random part of those with a known target gene and a result. Over the whole deposit, 116 (0.52%) are marked active. 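Calls depend on retest data that are not deposited; infection was ranked per plate without normalising between plates; the unit of the infection score is not given.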 The raw values are shown without normalisation. A plus sign joins genes that one reagent is predicted to hit. Not all columns of the deposit are shown. Not given: the amount of reagent, the time to read-out.

- Purpose: 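Genome-wide fly cell screen for genes dengue virus requires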 (primary screen)
- System: D.Mel-2 cells from Drosophila
- Reagent: long dsRNA against Drosophila genes
- Challenge: infection with dengue virus type 2; dose and infection time not stated
- Measured: 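Cells stained for dengue envelope protein and imaged; percent of infected cells per well on duplicate plates, ranked by infection, with stained nuclei counted for cell number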
- Scale: infection score: higher = more virus-infected cells; cell count: higher = more cells in the well
- Call rule: 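Low infection ranks in the two replicates (chance level up to 0.065) followed by a retest with a 1.5-fold or larger significant decrease, p below 0.05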
- Calls: active = confirmed: knock-down lowers infection; inactive = not picked or not confirmed

The first 2 records, ahead of the listing:
vsg (GeneID 39137) [DRSC10219]: infection score, replicate 1 = 3.06; cell count, replicate 1 = 6600; outcome = inactive
vsg (GeneID 39137) [DRSC25227]: infection score, replicate 1 = 1.28; cell count, replicate 1 = 6326; outcome = inactive

The listing, repeating the preview:
vsg (GeneID 39137) [DRSC10219]: infection score, replicate 1 = 3.06; cell count, replicate 1 = 6600; outcome = inactive
vsg (GeneID 39137) [DRSC25227]: infection score, replicate 1 = 1.28; cell count, replicate 1 = 6326; outcome = inactive
Nepl18 (GeneID 43410) [DRSC14879]: infection score, replicate 1 = 2.74; cell count, replicate 1 = 6237; outcome = inactive
CG14540 (GeneID 43145) [DRSC14884]: infection score, replicate 1 = 3.17; cell count, replicate 1 = 6658; outcome = inactive
CG14540 (GeneID 43145) [DRSC25080]: infection score, replicate 1 = 1.08; cell count, replicate 1 = 6844; outcome = inactive
Vm26Ac (GeneID 33828) [DRSC02329]: infection score, replicate 1 = 5.59; cell count, replicate 1 = 5978; outcome = inactive
Vm26Ac (GeneID 33828) [DRSC26887]: infection score, replicate 1 = 7.15; cell count, replicate 1 = 6324; outcome = inactive
CG31960 (GeneID 319047) [DRSC00281]: infection score, replicate 1 = 4.24; cell count, replicate 1 = 6603; outcome = inactive
CG31960 (GeneID 319047) [DRSC26274]: infection score, replicate 1 = 11.2; cell count, replicate 1 = 5836; outcome = inactive
snky (GeneID 39492) [DRSC09838]: infection score, replicate 1 = 2.47; cell count, replicate 1 = 6241; outcome = inactive
Mad (GeneID 33529) [DRSC00759]: infection score, replicate 1 = 5.12; cell count, replicate 1 = 6504; outcome = inactive
CG30287 (GeneID 246530) [DRSC03875]: infection score, replicate 1 = 0.44; cell count, replicate 1 = 6122; outcome = inactive
CG7275 (GeneID 39669) [DRSC10796]: infection score, replicate 1 = 21.5; cell count, replicate 1 = 5011; outcome = inactive
CG17600 (GeneID 33141) [DRSC20640]: infection score, replicate 1 = 0.42; cell count, replicate 1 = 6246; outcome = active
CG17600 (GeneID 33141) [DRSC22753]: infection score, replicate 1 = 1.76; cell count, replicate 1 = 5457; outcome = inactive
CG17600 (GeneID 33141) [DRSC27203]: infection score, replicate 1 = 14.8; cell count, replicate 1 = 5319; outcome = inactive
daed + CG34174 [DRSC27640]: infection score, replicate 1 = 4.3; cell count, replicate 1 = 6907; outcome = inactive
CG13044 (GeneID 39795) [DRSC09925]: infection score, replicate 1 = 2.1; cell count, replicate 1 = 5848; outcome = inactive
CG13044 (GeneID 39795) [DRSC28609]: infection score, replicate 1 = 21.8; cell count, replicate 1 = 5509; outcome = inactive
CG3253 (GeneID 37861) [DRSC04350]: infection score, replicate 1 = 4.88; cell count, replicate 1 = 6472; outcome = inactive
CG3253 (GeneID 37861) [DRSC29358]: infection score, replicate 1 = 17.4; cell count, replicate 1 = 5034; outcome = inactive
